Measured values from article PMC5000474, “Discovery of a Carbazole-Derived Lead Drug for Human African Trypanosomiasis” (Scientific Reports, 2016).

Tested on: bloodstream T. brucei
Test: Trypanosome proliferation inhibition assay (GI50)
Type: cell-based, Trypanosoma brucei brucei
Conditions: CBL0127 vs 1, CBL0100Q vs CBL0100
Procedure: T. brucei (brucei or rhodesiense) were seeded at 4 × 10^3 cells/mL in 24-well plates (0.5 or 1 mL of culture per well). […] Then, at least five drug concentrations[26] covering this range was used for subsequent assays. Each concentration was tested in duplicate. […] Cells were counted only if they were motile. […] Final mean GI50 values were calculated based on two independent experiments, each with at least five data points performed in duplicate. T. brucei were seeded at 4 × 10^3 cells/mL and dispensed into wells of a 384-well black plate (Greiner; Frickenhausen, Germany). Wells in two columns per plate were filled with 50 μL of HMI-9 medium using a Multidrop Combi (Thermo Scientific; Waltham, MA) to serve as a background control. Fifty microliters of trypanosome suspension was added to separate columns using a Multidrop Combi. Lastly, an additional 50 μL of cell resuspension was added to only the top row of wells that contained cells (row A, labeled by Greiner), using an Xplorer multichannel pipette (Eppendorf; Hamburg-Eppendorf, Germany) bringing final volumes of cell-containing wells in the top row to 100 μL. […] St. Louis, MO). […] Base-line corrected non-linear regression graphs were generated and GI50 values determined using GraphPad Prism (GraphPad Software; La Jolla, CA). Final mean GI50 values were calculated based on four separate biological replicates.

SMILES	reduction in potency (potency loss) versus comparator [fold]
CCN(CC)CCCC(C)n1c2ccc3c(c2c2c4c(ccc21)C(=O)CC4)CCC3=O (centres unmarked) [CBL0100Q]	~250
CC(=O)c1ccc2c(c1)c1cc(C(C)=O)ccc1n2CCCNC(C)C [CBL0127]	3
